Results of unrelated studies side by side (data: NIAID ChemDB).

Shared fields: growth or infection tests; organism: Mycobacterium tuberculosis

Conditions beyond the fields shown may differ between rows. Percent inhibition refers to the dose given; in toxicity tests it is the harm to the cells. ECn is the concentration giving n% inhibition of infection, replication or growth. MIC50, MIC90 and the like: level of inhibition, or share of isolates inhibited. MIC bound comes from a single tested concentration. Blank or dashed fields: not listed here.

structure,strain or isolate,tested at,read by,read-out,result
COC(=O)c1ccc(Br)c(S(=O)(=O)NC(=O)Nc2nccc(OC)n2)c1,H37Rv,,,MIC,>80 µg/mL
CC[C@H]1OC(=O)[C@H](C)C(=O)[C@H](C)[C@@H](O[C@@H]2O[C@H](C)C[C@H](N(C)C)[C@H]2O)[C@](C)(OC)C[C@@H](C)C(=O)[C@H](C)[C@H]2N(CCCCn3cnc(-c4cccnc4)c3)C(=O)O[C@]12C,Isolate 900145,,,MIC,>40 µg/mL
COC(=O)c1ccc(NC(=O)C(Cl)(Cl)Cl)cc1S(=O)(=O)NC(=O)Nc1nccc(C)n1,H37Rv,,,MIC,80 µg/mL
Cn1c(NNc2nc(Nc3cccc(Cl)c3)nc(Nc3cccc(Cl)c3)n2)nc(-c2ccc(Cl)cc2)c(C#N)c1=O,H37Rv,,,EC50,>12.5 µg/mL
CNC(=O)Oc1ccccc1C(=O)Nc1ccccc1,H37Rv,12.5 µg/mL,BACTEC,inhibition,14%
Clc1nc(Sc2ccncc2)c2[nH]cnc2n1,H37Rv,,,MIC90,>6.25 µg/mL
CC(=O)Nc1c(C)n(C)n(-c2ccccc2)c1=O,H37Rv,,BACTEC,MIC,≥12.8 µg/mL
NC(=S)c1cncc(-n2cncn2)n1,Ethionamide-resistant,,,MIC,500 µg/mL
O=c1nc(SCc2ccccn2)c2[nH]cnc2[nH]1,H37Rv,6.25 µg/mL,,inhibition,7%
NNC(=O)c1ccncc1,2218,,,MIC,>2 µg/mL
Cn1c(NNc2nc(Nc3ccccn3)nc(Nc3ccccn3)n2)nc(-c2ccccc2)c(C#N)c1=O,H37Rv,12.5 µg/mL,,inhibition,0%
CC1CCCCN1c1cncc(C(N)=S)n1,H37Rv,,,MIC,250 µg/mL
CC1OC(OC2C(Oc3cc(O)c4c(c3)OC(c3ccc(O)cc3)CC4=O)OC(CO)C(O)C2O)C(O)C(O)C1O,H37Rv,,BACTEC,MIC bound,>12.5 µg/mL
NNC(=O)c1ccc(Cl)cc1,,0.125 µg/mL,,inhibition,60%
O=C(Nc1ccc(NC(=O)c2ccncc2)cc1)c1ccncc1,H37Rv,6.25 µg/mL,resazurin,inhibition,30%
O=C(N/N=C/c1ccc(Cl)cc1Cl)c1ccncc1,H37Rv,,,MIC,>5 µg/mL
Cc1cccc(CSc2ncccn2)c1,H37Rv,,,MIC90,>6.25 µg/mL
CCOC(=O)/C(C#N)=N/Nc1ccc(C(=O)OC)c(S(=O)(=O)NC(=O)Nc2nccc(C)n2)c1,H37Rv,,,MIC,>80 µg/mL
CN1C(=S)NC2C(O)C(O)C(CO)OC21,H37Rv,6.25 µg/mL,resazurin,inhibition,-18%
COc1ccc(Nc2nc(NNc3nc(-c4ccccc4)c(C#N)c(=O)n3C)nc(Nc3ccc(OC)cc3)n2)cc1,H37Rv,,,EC50,<12.5 µg/mL
CO[C@H]1/C=C/O[C@@]2(C)Oc3c(C)c(O)c4c(O)c(cc(OCC(=O)NNC(=O)c5ccncc5)c4c3C2=O)NC(=O)/C(C)=C\C=C\[C@H](C)[C@H](O)[C@@H](C)[C@@H](O)[C@@H](C)[C@H](OC(C)=O)[C@@H]1C,,,,EC50,0.3 µg/mL
CC1CCCCN1c1cncc(C(=O)NO)n1,H37Rv,,,MIC,500 µg/mL
Cc1ccc(N2C(=O)CCSC2=S)cc1Br,H37Rv,,BACTEC,MIC bound,>12.5 µg/mL
Cc1cn2c(C(=O)NCc3ccc4c(c3)CCO4)c(C)nc2s1,H37Rv,,luminescence,MIC,0.54 µM
O=C(c1ccc(Oc2ccccc2)cc1)C(Br)Br,H37Rv,,,MIC,25 µg/mL
COC(=O)NC[C@H]1CN(c2ccc(N3C=NN(C(N)=O)CC3)c(F)c2)C(=O)O1,H37Rv,,GFP / reporter gene,MIC,250 µg/mL
OCNC(=S)c1cncc(-n2ccnc2)n1,SP 607,,,MIC,500 µg/mL
CS(=O)(=O)N=C1C=CC(=NS(C)(=O)=O)C=C1,H37Rv,,BACTEC,MIC bound,>12.5 µg/mL
NC(=O)N1CCN(c2ccc(N3C[C@H](CO)OC3=O)cc2F)C=N1,H37Rv,,GFP / reporter gene,MIC,1000 µg/mL
NC(=S)NNC(=S)S,INH-r,,,MIC,12.5 µg/mL
NNC(=O)CCCCC(=O)NN,,0.125 µg/mL,,inhibition,60%
O=[N+]([O-])c1cc(Sc2nc3c(Br)cc(Br)cc3[nH]2)cc([N+](=O)[O-])c1,My 331/88,,,MIC,4 µM
O=C1OC(c2cccc3ccccc23)=N/C1=C/c1cccs1,H37Rv,,MTT,MIC,20.5 µM
O=C(Nc1ccc(NC(=O)/C(Cl)=C/Cl)c2c1C(=O)c1ccccc1C2=O)/C(Cl)=C/Cl,H37Rv,12.5 µg/mL,BACTEC,inhibition,8%
Cc1ccc(/C=C2\N=C(c3ccc([N+](=O)[O-])cc3Cl)OC2=O)o1,H37Rv,,MTT,MIC,113 µM
CC(=O)NC[C@H]1CN(c2ccc(N3C=NOCC3)c(F)c2)C(=O)O1,20 clinical isolates,,resazurin,MIC90,500 µg/mL
Cc1ccc(-c2n[nH]c(=O)n2-n2c(C)ccc2C)cc1,8546,,,MIC,5.16 µg/mL
O=C(NN1C(=O)CS(=O)(=O)C1c1ccc(Cl)cc1Cl)c1ccncc1,H37Rv,,,MIC,>5 µg/mL
COc1cc([C@H]2OC(=O)C3C2C(=O)O[C@@H]3c2cc(OC)c(OC)c(OC)c2)cc(OC)c1OC,H37Rv,12.5 µg/mL,BACTEC,inhibition,0%
Cn1c(NNc2nc(NCc3ccccc3)nc(NCc3ccccc3)n2)nc(-c2ccccc2)c(C#N)c1=O,H37Rv,,,MIC,>12.5 µg/mL
NC(=S)c1cncc(-n2ccnc2)n1,Isoniazid-resistant,,,MIC,250 µg/mL
O=C(CCl)c1ccc(-c2ccccc2)cc1,H37Rv,,,MIC,12.5 µg/mL
N#Cc1cncc(-n2cncn2)n1,Capreomycin-resistant,,,MIC,250 µg/mL
FC(F)(F)c1nc2c(Cl)cc(Cl)cc2[nH]1,My 331/88,,,MIC,32 µM
CCNc1nc(NCC)nc(NNc2nc(-c3ccccc3)c(C#N)c(=O)n2C)n1,H37Rv,,,MIC,>12.5 µg/mL
CO[C@H]1/C=C/O[C@@]2(C)Oc3c(C)c(O)c4c(O)c(cc(OCC(=O)NNc5ccc(C)cc5)c4c3C2=O)NC(=O)/C(C)=C\C=C\[C@H](C)[C@H](O)[C@@H](C)[C@@H](O)[C@@H](C)[C@H](OC(C)=O)[C@@H]1C,,,,EC50,0.001 µg/mL
CC(=O)NC1C(OC(C)=O)OC(COC(c2ccccc2)(c2ccccc2)c2ccccc2)C(O)C1OC(C)=O,H37Rv,12.5 µg/mL,BACTEC,inhibition,13%
CCCCN(C(=O)COc1cc2c(O)c3c(O)c(C)c4c(c13)C(=O)[C@@](C)(O/C=C/[C@H](OC)[C@@H](C)[C@@H](OC(C)=O)[C@H](C)[C@H](O)[C@H](C)[C@@H](O)[C@@H](C)/C=C/C=C(/C)C(=O)N2)O4)N(CCC)CCC,,,,EC50,0.075 µg/mL
NC1=NC(=O)/C(=C/C=C/c2ccc([N+](=O)[O-])o2)S1,mc4914,,MTT,MIC,26.9 µM
O=C(C=Cc1ccc(O)cc1)NCCc1c[nH]c2ccc(O)cc12,H37Rv,12.5 µg/mL,BACTEC,inhibition,35%
FC(F)(F)C(F)(F)c1nc2c(Cl)cc(Cl)cc2[nH]1,My 331/88,,,MIC,16 µM
CCCc1ccc(C(=O)Nc2nc3ccccc3s2)cc1,mc4914,,MTT,MIC,33.9 µM
O=[N+]([O-])c1cc(Sc2nc3ccc(I)cc3[nH]2)cc([N+](=O)[O-])c1,My 331/88,,,MIC,4 µM
O=C(c1ccc(CCc2ccc(C(=O)C(Br)Br)cc2)cc1)C(Br)Br,H37Rv,,,MIC,6.25 µg/mL
O=[N+]([O-])c1ccc(Sc2nc3c(Br)c(Br)c(Br)c(Br)c3[nH]2)c([N+](=O)[O-])c1,My 331/88,,,MIC,16 µM
Cc1ccc(CSc2ncccn2)cc1,H37Rv,,,MIC90,>6.25 µg/mL
CCN(CC)CC1CCCCN1CC(=O)N1c2cc(Cl)ccc2NC(=O)CC1C,H37Rv,12.5 µg/mL,BACTEC,inhibition,13%
O=C(c1ccc(Cc2ccccc2)cc1)C(Cl)Cl,H37Rv,,,MIC,6.25 µg/mL
CCCN(CCC)N(C)C(=O)COc1cc2c(O)c3c(O)c(C)c4c(c13)C(=O)[C@@](C)(O/C=C/[C@H](OC)[C@@H](C)[C@@H](OC(C)=O)[C@H](C)[C@H](O)[C@H](C)[C@@H](O)[C@@H](C)/C=C/C=C(/C)C(=O)N2)O4,,,,EC50,0.37 µg/mL
COc1ccc(Nc2nc(NNc3nc(-c4ccc(Cl)cc4)c(C#N)c(=O)n3C)nc(Nc3ccc(OC)cc3)n2)cc1,H37Rv,,,EC50,<12.5 µg/mL
CC(C)CCOCC(O)CNCCNCC(O)COCCC(C)C,H37Rv,6.25 µg/mL,,inhibition,13%
NC(=O)c1cncc(-n2ccnc2)n1,Capreomycin-resistant,,,MIC,1000 µg/mL
COc1ccc(Sc2ncccn2)cc1,H37Ra,,,MIC,>12.8 µg/mL
O=[N+]([O-])c1cc(Sc2nc3ccc(Cl)cc3[nH]2)cc([N+](=O)[O-])c1,My 331/88,,,MIC,2 µM
Cn1c(NNc2nc(Nc3cccc([N+](=O)[O-])c3)nc(Nc3cccc([N+](=O)[O-])c3)n2)nc(-c2ccccc2)c(C#N)c1=O,H37Rv,,,EC50,<12.5 µg/mL
CC(=O)NNc1nc(C)c(C(=O)NNC(=O)C(=O)Nc2c(C)cccc2C(C)C)s1,H37Rv,,resazurin,MIC bound,>6.25 µg/mL
O=C1O[C@@H](CO)CN1c1ccc(N2C=NOCC2)c(F)c1,20 clinical isolates,,resazurin,MIC90,500 µg/mL
NNC(=O)CS(=O)(=O)Nc1ncccn1,H37Rv,,BACTEC,MIC bound,>12.5 µg/mL
O=[N+]([O-])c1cc(Sc2nc3c(Br)c(Br)c(Br)c(Br)c3[nH]2)cc([N+](=O)[O-])c1,My 331/88,,,MIC,16 µM
Cc1cccc(CSc2ccccn2)c1,H37Rv,6.25 µg/mL,,inhibition,0%
COc1cccc2c1C(=O)c1c(O)c3c(c(O)c1C2=O)C[C@](O)(c1csc(-c2ccncc2)n1)C[C@H]3OC1CC(N)C(O)C(C)O1.Cl,H37Rv,12.5 µg/mL,BACTEC,inhibition,19%
O=C1CSC(N2CCN(c3ccc(N4C[C@H](CO)OC4=O)cc3F)C=N2)=N1,H37Rv,,GFP / reporter gene,MIC,1000 µg/mL
O=C(NN1C(=O)CS(=O)(=O)C1c1ccccc1F)c1ccncc1,16PI,,,MIC,>5 µg/mL
FC(F)(F)C(F)(F)C(F)(F)c1nc2c(Br)c(Br)c(Br)c(Br)c2[nH]1,My 331/88,,,MIC,8 µM
CC(C)CCn1c2ccccc2c2nc3cc(OC(C)C)c(OC(C)C)cc3nc21,H37Rv,,MTT,MIC,100 µM
C/C=C1\C(=O)O[C@]23C=C[C@@H]4C(C(=O)OC)=CO[C@H](O[C@@H]12)[C@@H]43,H37Rv,,MTT,MIC,2.4 µg/mL
NC(=O)c1cncc(-n2cncn2)n1,Ethionamide-resistant,,,MIC,1000 µg/mL
CCCCCC/C=C/CCCCCCCCCc1cc(O)cc(OC)c1O,H37Rv,12.5 µg/mL,BACTEC,inhibition,-5%
CCOC(=O)c1ccc(NC(=O)C(Cl)Cl)cc1S(=O)(=O)NC(=O)Nc1nccc(C)n1,H37Rv,,,MIC,80 µg/mL
CCOc1ccc2c(c1)[n+]([O-])c(S(=O)(=O)c1ccc(C)cc1)c(N)[n+]2[O-],ETA-R,,,MIC,>12.5 µg/mL
Cn1c(NNc2nc(Nc3cc(Cl)cc(Cl)c3)nc(Nc3cc(Cl)cc(Cl)c3)n2)nc(-c2ccc(Cl)cc2)c(C#N)c1=O,H37Rv,,,EC50,<12.5 µg/mL
CC1=NN(C(=O)c2ccncc2)C(=O)C1N=Nc1ccc(S(=O)(=O)Nc2nccs2)cc1,H37Rv,,BACTEC,MIC,≥12.8 µg/mL
O=C(c1ccc(Sc2ccc(C(=O)C(Br)Br)cc2)cc1)C(Br)Br,H37Rv,,,MIC,6.25 µg/mL

Repeating the final 11 entries:

{"structure": "O=C(NN1C(=O)CS(=O)(=O)C1c1ccccc1F)c1ccncc1", "strain or isolate": "16PI", "read-out": "MIC", "result": ">5 µg/mL"}
{"structure": "FC(F)(F)C(F)(F)C(F)(F)c1nc2c(Br)c(Br)c(Br)c(Br)c2[nH]1", "strain or isolate": "My 331/88", "read-out": "MIC", "result": "8 µM"}
{"structure": "CC(C)CCn1c2ccccc2c2nc3cc(OC(C)C)c(OC(C)C)cc3nc21", "strain or isolate": "H37Rv", "read by": "MTT", "read-out": "MIC", "result": "100 µM"}
{"structure": "C/C=C1\\C(=O)O[C@]23C=C[C@@H]4C(C(=O)OC)=CO[C@H](O[C@@H]12)[C@@H]43", "strain or isolate": "H37Rv", "read by": "MTT", "read-out": "MIC", "result": "2.4 µg/mL"}
{"structure": "NC(=O)c1cncc(-n2cncn2)n1", "strain or isolate": "Ethionamide-resistant", "read-out": "MIC", "result": "1000 µg/mL"}
{"structure": "CCCCCC/C=C/CCCCCCCCCc1cc(O)cc(OC)c1O", "strain or isolate": "H37Rv", "tested at": "12.5 µg/mL", "read by": "BACTEC", "read-out": "inhibition", "result": "-5%"}
{"structure": "CCOC(=O)c1ccc(NC(=O)C(Cl)Cl)cc1S(=O)(=O)NC(=O)Nc1nccc(C)n1", "strain or isolate": "H37Rv", "read-out": "MIC", "result": "80 µg/mL"}
{"structure": "CCOc1ccc2c(c1)[n+]([O-])c(S(=O)(=O)c1ccc(C)cc1)c(N)[n+]2[O-]", "strain or isolate": "ETA-R", "read-out": "MIC", "result": ">12.5 µg/mL"}
{"structure": "Cn1c(NNc2nc(Nc3cc(Cl)cc(Cl)c3)nc(Nc3cc(Cl)cc(Cl)c3)n2)nc(-c2ccc(Cl)cc2)c(C#N)c1=O", "strain or isolate": "H37Rv", "read-out": "EC50", "result": "<12.5 µg/mL"}
{"structure": "CC1=NN(C(=O)c2ccncc2)C(=O)C1N=Nc1ccc(S(=O)(=O)Nc2nccs2)cc1", "strain or isolate": "H37Rv", "read by": "BACTEC", "read-out": "MIC", "result": "≥12.8 µg/mL"}
{"structure": "O=C(c1ccc(Sc2ccc(C(=O)C(Br)Br)cc2)cc1)C(Br)Br", "strain or isolate": "H37Rv", "read-out": "MIC", "result": "6.25 µg/mL"}